The values below are quoted from earlier work in patent publication US9597417B2, “Compositions and methods to evaluate hepatobiliary/gastrointestinal health, enterohepatic circulation, and drug interactions” (The United States of America as represented by the …, priority 2013, dated 2017).

The target in the data set is choloylglycine hydrolase from Clostridium perfringens (Clostridium perfringens, UniProt P54965). The settings on record: previously shown (ref. 15); cited from earlier work.

For `C[C@H](CCC(=O)N[C@@H](CCCCNC(=O)C(F)(F)F)C(=O)O)[C@H]1CC[C@H]2[C@@H]3[C@H](O)C[C@@H]4C[C@H](O)CC[C@]4(C)[C@H]3C[C@H](O)[C@]12C`, the “susceptibility to deconjugation by CGH” value is recorded as “susceptible to deconjugation by CGH”.
